From article PMC9609273 (Pharmaceuticals, 2022)

Tested on: Human Embryonic Kidney cells (HEK 293)

With “3-((2-Isonicotinoylhydrazono)methyl)phenyl quinoline-8-sulfonate [SIH13]” the “Cytotoxicity against HEK293 (in words)” value was “moderately toxic”.
